# Experimental data reported in patent publication US11390664B2, “Antibodies that potently neutralize hepatitis B virus and uses thereof” (priority 2015, dated 2022).
# System: HBV (genotype D)
# Assay: Combination therapy in chronically HBV infected humanized uPA/SCID mice
# Assay type: in vivo
# Conditions: 4 weeks treatment from week 8 post-infection; HBC34 1 mg/kg i.p. twice per week; lamivudine 0.4 mg/ml in drinking water
substance,measurement,value
"HBC34: IgG1-type fully human monoclonal antibody against HBsAg antigenic loop; VH SEQ ID NO: 41, VL SEQ ID NO: 42",HBsAg drop (reduction),1.3 log
same,mean reduction of viremia,0.7 log
